For part of these data: Results from cells or extracts need not show a direct contact. Protein sequences can lack the tags named with them. For part of these data: The exact form of at least one protein or probe is not confirmed.

2 sequences from patent US20170137895 can be followed below.

Series [1] deals with T1, Plasmodium falciparum topoisomerase I (pfTopoI), blood lysate (Plasmodium falciparum).
T1 sequence (limits assumed): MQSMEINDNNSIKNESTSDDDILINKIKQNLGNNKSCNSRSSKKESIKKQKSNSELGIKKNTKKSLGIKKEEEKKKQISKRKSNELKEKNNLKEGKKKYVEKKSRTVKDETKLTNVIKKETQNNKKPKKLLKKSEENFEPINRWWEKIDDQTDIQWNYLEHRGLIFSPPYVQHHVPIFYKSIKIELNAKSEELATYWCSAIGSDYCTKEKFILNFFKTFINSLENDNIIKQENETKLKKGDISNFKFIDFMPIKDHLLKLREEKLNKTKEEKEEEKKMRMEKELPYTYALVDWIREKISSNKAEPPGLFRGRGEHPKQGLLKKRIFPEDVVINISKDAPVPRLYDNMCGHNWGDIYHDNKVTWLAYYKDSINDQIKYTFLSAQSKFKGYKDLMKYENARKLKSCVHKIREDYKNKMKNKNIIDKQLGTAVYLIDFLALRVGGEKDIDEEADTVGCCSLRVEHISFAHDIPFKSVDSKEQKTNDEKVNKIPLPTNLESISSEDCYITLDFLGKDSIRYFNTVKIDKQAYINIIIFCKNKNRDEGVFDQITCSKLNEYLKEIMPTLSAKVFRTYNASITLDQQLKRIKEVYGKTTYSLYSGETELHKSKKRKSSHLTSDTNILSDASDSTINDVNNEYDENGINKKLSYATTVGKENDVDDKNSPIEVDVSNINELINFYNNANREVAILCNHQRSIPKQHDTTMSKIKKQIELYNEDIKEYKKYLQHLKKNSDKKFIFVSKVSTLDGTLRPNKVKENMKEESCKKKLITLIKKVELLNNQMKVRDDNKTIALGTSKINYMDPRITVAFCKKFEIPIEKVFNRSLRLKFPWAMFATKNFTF
Nature of the series: binding assay. Conditions: 37 C, protein in an extract.

The subject of series [2] is T2, Plasmodium falciparum topoisomerase I (pfTopoI) (Plasmodium falciparum).
T2 sequence (limits assumed): T1 sequence (limits assumed)
In words: activity assay. The conditions noted are these: 5' amino-C6-T on both strands, SEQ:1 strand covalently immobilised; SHOfLE cleavage-ligation, silver stain; 10 mM Tris pH 7.5, 1 mM EDTA, 300 mM NaCl, 37 C; purified recombinant protein; protein details: expressed in yeast from pYES2.1.

As for “ACTACCATTCTGAGTCGTTCGATCTAAAAGACTTAGA / ATTTTTCTAAGTCTTTTAGATCGAACGACTCAGAATGATGCATGTATACTAAACTCACAAATTAGAGC”, the binding result in series [1] (amine-linked SEQ:3 strand immobilised on CodeLink slide, one-step assay, detection below 5 parasites/ul, TEN3 buffer) is “binds”.
As for “ACTACCATTCTGAGTCGTTCGAAGTTCCTATACTTT / TCTAGAAAGTATAGGAACTTCGAACGACTCAGAATG [pfTopoI SHOfLE substrate duplex]”, the binding result in series [1] (5' amino-C6-T on both strands, SEQ:1 strand covalently immobilised, infected blood lysates compared with uninfected, SHOfLE, EDTA, 300 mM NaCl) is recorded as “binds”. In series [2], the “activity on this sequence” value is “active”.
